From PMC10782225 (The FASEB Journal, 2023)

Key:
Experiment in all cases: cell-based
human α7β2‐nAChR [1] = system: human α7β2‐nAChR
human α7β2‐nAChR [2] = molecular target: T1, human α7β2‐nAChR (Homo sapiens, UniProt P17787+P36544); conditions: SEM
T1 construct: expressed in transfected cells; host or cells: Xenopus laevis oocytes, cRNA injection

human α7‐only‐nAChR = molecular target: T2, human α7‐only‐nAChR (Homo sapiens, UniProt P36544); conditions: SEM
T2 construct: expressed in transfected cells; host or cells: Xenopus laevis oocytes, cRNA injection

CC(C)C[C@@H]1NC(=O)[C@H](Cc2ccccc2)NC(=O)[C@@H]2CSSC[C@H](NC(=O)CN)C(=O)N[C@@H](CSSC[C@@H](C(N)=O)NC(=O)[C@H](Cc3ccc(O)c(I)c3)NC(=O)[C@H](CC(=O)O)NC(=O)[C@@H]3CCCN3C(=O)[C@H](CC(N)=O)NC(=O)[C@H](CC(N)=O)NC1=O)C(=O)N[C@@H](CO)C(=O)N[C@@H](Cc1c[nH]cn1)C(=O)N1CCC[C@H]1C(=O)N1CCC[C@H]1C(=O)N2 [[Y15iodo]]
α7β2 Selectivity (human α7β2‐nAChR [1]): 4.3x
N obs α7β2 (human α7β2‐nAChR [2]): 1.51 ± 0.06
N off α7β2 (human α7β2‐nAChR [2]): 1.58 ± 0.11
k obs α7β2 (human α7β2‐nAChR [2]): 71.5 ± 2.9 min^−1 (×10^−3)
koff (human α7β2‐nAChR [2]; read-out: k off α7β2): 5.72e-05 s⁻¹
kon (human α7β2‐nAChR [2]; read-out: k on α7β2): 37800 M⁻¹ s⁻¹
N obs α7‐only (human α7‐only‐nAChR): 5.78 ± 0.99
N off α7‐only (human α7‐only‐nAChR): 2.16 ± 0.46
k obs α7‐only (human α7‐only‐nAChR): 246 ± 99 min^−1 (×10^−3)
koff (human α7‐only‐nAChR; read-out: k off α7‐only): 0.000177 s⁻¹
kon (human α7‐only‐nAChR; read-out: k on α7‐only): 27500 M⁻¹ s⁻¹
